Source: US20240409505A1, “GLUCONAMIDE SULFATE SURFACTANTS” (The Procter & Gamble Company, priority 2023, published 2024)

Tested on: activated sludge inoculum
Test: Biodegradability Test Method, OECD 301B CO2 evolution (modified Sturm Test)

| Compound | % SOC Average [%] | % THCO2 average (percent of theoretical CO2 formation) [%] |
| --- | --- | --- |
| N-Alkanoyl N-methyl glucamide sulfate [reference compound] | 56 | – |
| CCCCCCCCCCCCNC(=O)[C@H](O)[C@@H](O)[C@H](O)[C@H](O)COS(=O)(=O)O [Example 1, Sodium (2R,3R,4S,5R)-6-(dodecylamino)-2,3,4,5-tetrahydroxy-6-oxohexyl sulfate] | 8 | 79.6 |

Where a name gives a salt, the structure may show the parent alone.
